Compound potency records, mixed from different reports. Data source: NIAID ChemDB in PubChem.

Common to all: growth or infection tests; organism: Mycobacterium kansasii; read-out: MIC

Rows are shuffled and stem from different studies.

structure	strain or isolate	setting	value
CC(C)[C@H](NC(=O)OCc1ccccc1)c1cnc(-c2ccccc2)[nH]1	My 6509/96	21 d	62.5 µM
O=C(Oc1ccc(Cl)cc1C(=O)Nc1ccc(Cl)c(Cl)c1)c1cnccn1	6509/96	21 d	2 µM
O=C(Nc1cccc(Cl)c1)c1ccc(Cl)cc1OS(=O)(=O)c1ccccc1	6509/96	7 d	125 µM
O=C(Oc1cc(Cl)ccc1C(=O)Nc1ccc(F)cc1)c1cnccn1	6509/96	14 d	4 µM
O=C(Nc1cccc(F)c1)c1cc(Cl)ccc1OS(=O)(=O)c1ccccc1	6509/96	14 d	32 µM
O=C(Oc1cc(Cl)ccc1C(=O)Nc1ccc(Cl)c(Cl)c1)c1cnccn1	6509/96	14 d	4 µM
O=c1oc2ccc(Br)cc2c(=S)n1-c1ccc(C(F)(F)F)cc1	My 235/80	14 d	8 µM
O=C(Oc1ccc(Br)cc1C(=O)Nc1ccc(C(F)(F)F)cc1)c1cnccn1	6509/96	7 d	1 µM
O=C(N[C@@H](Cc1ccccc1)c1cnc(-c2ccccc2)[nH]1)OCc1ccccc1	My 6509/96	21 d	>250 µM
O=C(Oc1ccc(Cl)cc1C(=O)Nc1ccc(F)cc1)c1cnccn1	6509/96	7 d	4 µM
O=C(Nc1ccc(Cl)c(Cl)c1)c1ccc(Cl)cc1OS(=O)(=O)c1ccccc1	6509/96	14 d	8 µM
O=c1oc2ccc(Br)cc2c(=S)n1-c1ccc(Cl)c(Cl)c1	6509/96	21 d	8 µM
O=C(N[C@@H](Cc1ccccc1)c1cnc(-c2ccc([N+](=O)[O-])cc2)[nH]1)OCc1ccccc1	My 235/80	14 d	32 µM
O=C(Nc1ccc(Cl)c(Cl)c1)c1cc(Cl)ccc1OS(=O)(=O)c1ccccc1	235/80	7 d	4 µM
COc1ccc2oc(=O)n(-c3ccc(C(F)(F)F)cc3)c(=S)c2c1	6509/96	21 d	62.5 µM
O=C(OCc1ccccc1)N1CCC[C@H]1c1cnc(-c2ccccc2)[nH]1	My 235/80	21 d	62.5 µM
O=C(Oc1ccc(Cl)cc1C(=O)Nc1cccc(F)c1)c1cnccn1	6509/96	21 d	8 µM
O=C(OCc1ccccc1)N1CCC[C@H]1c1cnc(-c2ccc([N+](=O)[O-])cc2)[nH]1	My 6509/96	21 d	62.5 µM
O=C(Nc1cccc(C(F)(F)F)c1)c1cc(Cl)ccc1OS(=O)(=O)c1ccccc1	6509/96	21 d	16 µM
O=c1oc2ccc(F)cc2c(=S)n1-c1cccc(Cl)c1	6509/96	14 d	0.5 µM
CC(C)[C@H](NC(=O)OCc1ccccc1)c1cnc(-c2ccc([N+](=O)[O-])cc2)[nH]1	My 235/80	7 d	32 µM
Cc1ccc2oc(=O)n(-c3cccc(F)c3)c(=S)c2c1	6509/96	21 d	16 µM
O=C(Oc1ccc(Cl)cc1C(=O)Nc1ccc(C(F)(F)F)cc1)c1cnccn1	235/80	21 d	2 µM

For reference, 3 entries again:

structure	strain or isolate	setting	value
O=c1oc2ccc(F)cc2c(=S)n1-c1cccc(Cl)c1	6509/96	14 d	0.5 µM
O=C(Oc1ccc(Cl)cc1C(=O)Nc1ccc(C(F)(F)F)cc1)c1cnccn1	235/80	21 d	2 µM
O=C(Oc1ccc(Br)cc1C(=O)Nc1ccc(C(F)(F)F)cc1)c1cnccn1	6509/96	7 d	1 µM